Article PMC9239988 (2022)

Tests used:
[1] = biological target: TBEV prMe-linker-sE W101D single-chain construct (Tick-borne encephalitis virus, strain Neudoerfl); assay: crystal structure
[2] = biological target: TBEV prMe-linker-sE^W101D single-chain protein (tick-borne encephalitis virus strain Neudoerfl); assay: crystal structure

Substance: TBEV prMe-linker-sE W101D single-chain construct
- stoichiometry N [1]: 3

Substance: TBEV prMe-linker-sE^W101D single-chain protein
- stoichiometry N [2]: 3
